Share of PSTVd stem 3 variants by leaf site

Region: stem 3 of PSTVd (intermediate strain), upper and lower strand joined, each 5' to 3', the first 8 letters being the upper strand. Wild type: GUGGUUCCGGAACCGC. Varied positions (N): GUGGUUCCGNANNCNN.

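Three N. benthamiana plants were inoculated with the whole mutant pool. Samples came from the inoculated region at 5 days, the leaf margin at 10 and upper systemic leaves at 12.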

Values are reads per thousand in the sample; higher means more abundant, 0 means not found.
Each site shows the three plants.
"Pool" is the share in the plasmid pool used as inoculum, on the same scale.
The inoculated region was read from the minus strand, the other sites from the plus strand.
IR is the inoculated region, LM the leaf margin, Sys the systemic leaves.
With 27,691-54,225 reads a sample, very low values are single reads.

sequence | pool | IR | LM | Sys
GUGGUUCCGAAAACGU | 0.954 | 0.933 / 0.776 / 1.24 | 0 / 1.08 / 0.325 | 0 / 0 / 0
GUGGUUCCGAAAACUA | 0.616 | 0.373 / 0.410 / 0.243 | 0 / 0 / 0 | 0 / 0 / 0
GUGGUUCCGAAAACUC | 0.939 | 0.426 / 0.194 / 0.270 | 0 / 0 / 0 | 0 / 0 / 0.0243
GUGGUUCCGAAAACUG | 0.862 | 0.373 / 0.216 / 0.216 | 0.0567 / 0.0318 / 0 | 0 / 0 / 0
GUGGUUCCGAAAACUU | 1.79 | 1.09 / 1.40 / 1.43 | 0 / 0.0318 / 0 | 0.168 / 0 / 0
GUGGUUCCGAAACCAA | 1.51 | 1.28 / 0.863 / 1.27 | 0 / 0 / 0 | 0 / 0.0184 / 0
GUGGUUCCGAAACCAC | 0.877 | 0.773 / 0.647 / 1.03 | 0.0283 / 0 / 0 | 0 / 0 / 0
GUGGUUCCGAAACCAG | 0.831 | 0.933 / 0.776 / 1.19 | 0 / 0 / 0 | 0 / 0 / 0
GUGGUUCCGAAACCAU | 0.800 | 0.720 / 0.755 / 0.892 | 0.0283 / 0.891 / 0.506 | 0 / 0 / 0
GUGGUUCCGAAACCCA | 0.862 | 0.320 / 0.410 / 0.297 | 0 / 0.0318 / 0.0722 | 0 / 0 / 0
GUGGUUCCGAAACCCC | 0.893 | 0.853 / 0.712 / 0.838 | 0.425 / 0 / 0.397 | 0 / 0 / 0
GUGGUUCCGAAACCCG | 0.970 | 0.480 / 0.496 / 0.459 | 0 / 0 / 0 | 0.0186 / 0 / 0
GUGGUUCCGAAACCCU | 0.846 | 0.720 / 0.604 / 0.703 | 0 / 0 / 0 | 0 / 0 / 0
GUGGUUCCGAAACCGA | 0.754 | 0.347 / 0.431 / 0.324 | 0.0283 / 0 / 0.0361 | 0 / 0 / 0
GUGGUUCCGAAACCGC | 1.02 | 13.7 / 21.6 / 44.6 | 11.6 / 8.40 / 2.89 | 36.1 / 39.0 / 23.1
GUGGUUCCGAAACCGG | 0.616 | 0.426 / 0.216 / 0.405 | 0 / 0.0318 / 0.0722 | 0 / 0 / 0
GUGGUUCCGAAACCGU | 0.831 | 0.720 / 0.819 / 0.757 | 0 / 0 / 0 | 0 / 0 / 0
GUGGUUCCGAAACCUA | 0.739 | 0.746 / 0.841 / 0.567 | 0.283 / 0.0318 / 0.217 | 0 / 0 / 0
GUGGUUCCGAAACCUC | 0.754 | 0.267 / 0.496 / 0.189 | 0 / 0.0318 / 0.0361 | 0 / 0 / 0
GUGGUUCCGAAACCUG | 0.708 | 0.453 / 0.345 / 0.243 | 0.0283 / 0 / 0.0361 | 0 / 0 / 0
GUGGUUCCGAAACCUU | 1.12 | 0.720 / 0.539 / 1.13 | 0.368 / 0 / 0 | 0 / 0 / 0
GUGGUUCCGAAAGCAA | 0.646 | 0.960 / 0.410 / 1.03 | 0 / 0 / 0.325 | 0 / 0 / 0
GUGGUUCCGAAAGCAC | 0.769 | 0.906 / 0.733 / 0.649 | 0 / 0 / 0.289 | 0 / 0 / 0
GUGGUUCCGAAAGCAG | 0.831 | 0.986 / 0.733 / 0.946 | 0 / 0 / 0 | 0 / 0 / 0
GUGGUUCCGAAAGCAU | 1.12 | 0.666 / 1.01 / 1.08 | 1.61 / 1.21 / 0.289 | 1.29 / 1.25 / 0.705
GUGGUUCCGAAAGCCA | 0.816 | 0.187 / 0.302 / 0.297 | 0 / 0 / 0 | 0 / 0 / 0
GUGGUUCCGAAAGCCC | 1.40 | 0.746 / 0.819 / 0.540 | 0 / 0 / 0.0722 | 0 / 0 / 0
GUGGUUCCGAAAGCCG | 0.985 | 0.267 / 0.474 / 0.297 | 0 / 0 / 0 | 0 / 0 / 0
GUGGUUCCGAAAGCCU | 0.816 | 0.666 / 0.690 / 0.730 | 0.0283 / 0 / 0.253 | 0 / 0 / 0
GUGGUUCCGAAAGCGA | 0.831 | 0.293 / 0.280 / 0.243 | 0 / 0 / 0.0722 | 0 / 0 / 0
GUGGUUCCGAAAGCGC | 0.877 | 0.373 / 0.388 / 0.135 | 0.0283 / 0.0318 / 0.0722 | 0 / 0 / 0.0243
GUGGUUCCGAAAGCGG | 0.939 | 0.267 / 0.194 / 0.270 | 0 / 0 / 0.0361 | 0 / 0 / 0
GUGGUUCCGAAAGCGU | 0.893 | 0.720 / 0.518 / 1.03 | 0 / 0 / 0.0361 | 0.0186 / 0.0184 / 0
GUGGUUCCGAAAGCUA | 0.754 | 0.480 / 0.345 / 0.270 | 0 / 0 / 0 | 0 / 0 / 0
GUGGUUCCGAAAGCUC | 0.893 | 0.373 / 0.259 / 0.243 | 0 / 0.0318 / 0 | 0 / 0 / 0
GUGGUUCCGAAAGCUG | 0.862 | 0.133 / 0.367 / 0.216 | 0 / 0.0954 / 0 | 0 / 0 / 0
GUGGUUCCGAAAGCUU | 0.646 | 0.986 / 0.625 / 0.784 | 0 / 0.0318 / 0.397 | 0 / 0 / 0
GUGGUUCCGAAAUCAA | 0.831 | 0.826 / 0.561 / 0.892 | 0 / 0 / 0.0361 | 0 / 0 / 0
GUGGUUCCGAAAUCAC | 0.708 | 1.15 / 0.906 / 1.43 | 0 / 1.34 / 0.253 | 0 / 0 / 0
GUGGUUCCGAAAUCAG | 1.02 | 0.986 / 0.582 / 0.919 | 1.50 / 1.15 / 0.433 | 1.14 / 1.27 / 0.851

For reference, wild type rose from 17.3 per thousand in the pool to 330, 345, 235 (inoculated region), 794, 766, 816 (leaf margin) and 830, 792, 869 (systemic leaves).
The authors trace changes outside the varied positions to PCR and sequencing errors or to mutation in the plant; presence does not show that a variant is infectious alone.

Source: Wu et al. 2024 (doi:10.1371/journal.ppat.1012142), supplementary data.